Columns and labels:
[1] = target: 229E Mpro (Human coronavirus 229E, UniProt P0C6X1); assay: 229E Mpro enzymatic assay; conditions: read-out: 229E Mpro IC50; Table 3
Procedure: (§1) Compounds were assayed using standard methods to assess compound activity and IC50. As an exemplary for assessment of the SARS-COV2 Mpro, the C-His6-tagged Mpro (NC_045512) was cloned, expressed in E. coli and purified. The assay buffer contained 20 mM of Tris-HCl (pH 7.3), 100 mM of NaCl, 1 mM of EDTA, 5 mM of TCEP and 0.1% BSA. The final concentrations of the Mpro protein and substrate were 25 nM and 25 μM, respectively, in the Mpro enzymatic assay. The Km of the Mpro substrate for the protease was 13.5 μM.
(§2) The compounds were added to an assay plate. For 100% inhibition control (HPE, hundred percent effect), 1 μM GC376 was added. For no inhibition control (ZPE, zero percent effect), no compound was added.
(§3) IC50 values of compounds were calculated with the GraphPad Prism software using the nonlinear regression model of log(inhibitor) vs. response—Variable slope (four parameters). The inhibition activity was calculated using the formula below, IC50 values is calculated using the Inhibition % data.
(§4) [formula] • #HEP: Hundred percent effect controls. Containing substrate+enzyme+1 μM GC376. • ZPE: Zero percent effective controls. Containing enzyme+substrate, no compound. • Sample: Compound activity testing wells. Containing compound+enzyme+substrate. • BG: Compound background control wells. Containing compound+substrate, no enzyme.

By UniProt entry, the sequences of proteins in these tests, tags left out. Residues count along the entry.
UniProt P0C6X1, 2966-3267 limits assumed: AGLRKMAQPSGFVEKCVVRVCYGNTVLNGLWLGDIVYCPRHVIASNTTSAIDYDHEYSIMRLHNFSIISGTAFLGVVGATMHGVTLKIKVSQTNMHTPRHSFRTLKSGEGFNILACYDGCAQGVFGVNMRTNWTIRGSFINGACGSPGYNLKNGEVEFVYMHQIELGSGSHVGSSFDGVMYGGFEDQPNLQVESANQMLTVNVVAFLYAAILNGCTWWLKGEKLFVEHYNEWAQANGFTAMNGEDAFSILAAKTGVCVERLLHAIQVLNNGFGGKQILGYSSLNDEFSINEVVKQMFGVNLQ
UniProt P0C6X6, 3247-3549 limits assumed: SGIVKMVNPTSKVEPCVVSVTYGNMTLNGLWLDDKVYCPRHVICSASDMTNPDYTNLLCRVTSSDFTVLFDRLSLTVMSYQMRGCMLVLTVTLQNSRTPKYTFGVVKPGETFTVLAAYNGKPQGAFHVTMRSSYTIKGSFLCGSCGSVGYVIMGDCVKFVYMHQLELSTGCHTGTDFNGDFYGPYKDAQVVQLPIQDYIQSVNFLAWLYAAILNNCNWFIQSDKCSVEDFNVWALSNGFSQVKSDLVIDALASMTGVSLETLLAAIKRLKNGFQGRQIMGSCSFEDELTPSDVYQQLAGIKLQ

[2] = target: SARS-COV2 Mpro (Severe acute respiratory syndrome coronavirus 2, UniProt P0DTD1); assay: COVID-19 (nCoV-2019, SARS-CoV2) Mpro enzymatic assay; conditions: read-out: COVID-19 Mpro IC50; Table 3
[3] = target: OC43 Mpro (Human coronavirus OC43, UniProt P0C6X6); assay: OC43 Mpro enzymatic assay; conditions: read-out: OC43 Mpro IC50; Table 3
Procedure: as §1, §2, §3, §4

Measured: IC50

CC1(C)[C@@H]2[C@@H](C(=O)N[C@H](C#N)C[C@@H]3CC4(CC4)NC3=O)N(C(=O)C(NC(=O)C(F)(F)F)C3CC(F)(F)C3)C[C@@H]21 (single isomer, unassigned)
< 2 µM: all assays above

Reference: patent publication US20240277795A1, “INHIBITORS OF CYSTEINE PROTEASES AND METHODS OF USE THEREOF” (Pardes Biosciences, Inc., priority 2021, published 2024)
